# Test system: 96 nts fragment of HIV-1 RNA
# Experiment: RNA cleavage assay, non-complementary 96 nts fragment of HIV-1 RNA
# Details: HIV-1 RNA 1 µM, conjugate 30 µM, 37 °C
smiles,measurement,setting,value
Cc1cn([C@H]2C[C@H](OP(=O)(O)OC[C@H]3O[C@@H](n4ccc(N)nc4=O)C[C@@H]3OP(=O)(O)OC[C@H]3O[C@@H](n4cnc5c(N)ncnc54)C[C@@H]3OP(=O)(O)OC[C@H]3O[C@@H](n4cnc5c(N)ncnc54)C[C@@H]3OP(=O)(O)OCCOCCOCCOCCOP(=O)(O)OCCOCCOCCOCCOP(=O)(O)OC[C@H]3O[C@@H](n4cnc5c(N)ncnc54)C[C@@H]3OP(=O)(O)OC[C@H]3O[C@@H](n4cnc5c(=O)[nH]c(N)nc54)C[C@@H]3OP(=O)(O)OC[C@H]3O[C@@H](n4cc(C)c(=O)[nH]c4=O)C[C@@H]3OP(=O)(O)OC[C@H]3O[C@@H](n4ccc(N)nc4=O)C[C@@H]3OP(=O)(O)OC[C@H]3O[C@@H](n4cc(C)c(=O)[nH]c4=O)C[C@@H]3OP(=O)(O)OC[C@H]3O[C@@H](n4cnc5c(=O)[nH]c(N)nc54)C[C@@H]3OP(=O)(O)OC[C@H]3O[C@@H](n4cnc5c(N)ncnc54)C[C@@H]3OP(=O)(O)OC[C@H]3O[C@@H](n4cc(C)c(=O)[nH]c4=O)C[C@@H]3OP(=O)(O)OC[C@H]3O[C@@H](n4cnc5c(N)ncnc54)C[C@@H]3OP(=O)(O)OC[C@H]3O[C@@H](n4cnc5c(N)ncnc54)C[C@@H]3OP(=O)(O)OC[C@H]3O[C@@H](n4cnc5c(=O)[nH]c(N)nc54)C[C@@H]3OP(=O)(O)OC[C@H]3O[C@@H](n4ccc(N)nc4=O)C[C@@H]3OP(=O)(O)OC[C@H]3O[C@@H](n4cc(C)c(=O)[nH]c4=O)C[C@@H]3OP(=O)(O)OC[C@H]3O[C@@H](n4cnc5c(N)ncnc54)C[C@@H]3OP(=O)(O)OC[C@H]3O[C@@H](n4ccc(N)nc4=O)C[C@@H]3OP(=O)(O)OC[C@H]3O[C@@H](n4cnc5c(N)ncnc54)C[C@@H]3OP(=O)(O)OC[C@H]3O[C@@H](n4cnc5c(N)ncnc54)C[C@@H]3OP(=O)(O)OC[C@H]3O[C@@H](n4cnc5c(=O)[nH]c(N)nc54)C[C@@H]3OP(=O)(O)OC[C@H]3O[C@@H](n4cc(C)c(=O)[nH]c4=O)C[C@@H]3OP(=O)(O)OC[C@H]3O[C@@H](n4ccc(N)nc4=O)C[C@@H]3OP(=O)(O)OC[C@H]3O[C@@H](n4cnc5c(N)ncnc54)C[C@@H]3OP(=O)(O)OC[C@H]3O[C@@H](n4cnc5c(=O)[nH]c(N)nc54)C[C@@H]3OP(=O)(O)OC[C@H]3O[C@@H](n4ccc(N)nc4=O)C[C@@H]3OP(=O)(O)OC[C@H]3O[C@@H](n4cnc5c(=O)[nH]c(N)nc54)C[C@@H]3OP(=O)(O)OC[C@H]3O[C@@H](n4cnc5c(N)ncnc54)C[C@@H]3OP(=O)(O)OC[C@H]3O[C@@H](n4cnc5c(N)ncnc54)C[C@@H]3OP(=O)(O)OC[C@H]3O[C@@H](n4cnc5c(N)ncnc54)C[C@@H]3OP(=O)(O)OC[C@H]3O[C@@H](n4cnc5c(=O)[nH]c(N)nc54)C[C@@H]3OP(=O)(O)OC[C@H]3O[C@@H](n4ccc(N)nc4=O)C[C@@H]3OP(=O)(O)OC[C@H]3O[C@@H](n4cc(C)c(=O)[nH]c4=O)C[C@@H]3OP(=O)(O)OC[C@H]3O[C@@H](n4cnc5c(=O)[nH]c(N)nc54)C[C@@H]3OP(=O)(O)OC[C@H]3O[C@@H](n4cnc5c(N)ncnc54)C[C@@H]3OP(=O)(O)OC[C@H]3O[C@@H](n4ccc(N)nc4=O)C[C@@H]3OP(=O)(O)OC[C@H]3O[C@@H](n4cc(C)c(=O)[nH]c4=O)C[C@@H]3OP(=O)(O)OC[C@H]3O[C@@H](n4cc(C)c(=O)[nH]c4=O)C[C@@H]3OP(=O)(O)OC[C@H]3O[C@@H](n4cnc5c(=O)[nH]c(N)nc54)C[C@@H]3O)[C@@H](COP(=O)(O)N[C@@H](CC(C)C)C(=O)N[C@@H](CCCNC(=N)N)C(=O)N[C@@H](CC(C)C)C(=O)N[C@@H](CCCNC(=N)N)C(=O)N[C@@H](CC(C)C)C(=O)N[C@@H](CCCNC(=N)N)C(=O)N[C@@H](CC(C)C)C(=O)N[C@@H](CCCNC(=N)N)C(=O)NCC(N)=O)O2)c(=O)[nH]c1=O,cleavage specificity on HIV-1 RNA,,predominantly Pyr-A cleavage specificity
same,HIV-1 RNA cleaved at 24 h,"24 h, 50 mM Tris-HCl pH 7.0, 0.2 M KCl, 1 mM EDTA",85%

# — publication PMC6177439, “Peptide-oligonucleotide conjugates exhibiting pyrimidine-X cleavage specificity efficiently silence miRNA target acting synergistically with RNase H” (Scientific Reports, 2018)
